Measurements from patent publication US6159963A, “Method for treating substance abuse” (Eli Lilly and Company, priority 1996, dated 2000).

System: 5-HT-2 receptor
Assay: pharmacological studies, 5-HT-2 receptor activity

In the case of `Cc1cc2c(s1)Nc1ccccc1N=C2N1CCN(C)CC1` [olanzapine, 2-methyl-4-(4-methyl-1-piperazinyl)-10H-thieno[2,3-b][1,5]benzodiazepine], the “activity at the 5-HT-2 receptor” value is reported as “active at the 5-HT-2 receptor”.
